Patent publication US20240336672A1 (INSTITUT PASTEUR, published 2024)

Target: SARS-CoV-2 Omicron subvariant BA.2 RBD (SARS-CoV-2)
Assay: ELISA [D]

B1: ADG-2 (antibody, V domains shown)
VH: EVQLVESGGGLVKPGGSLRLSCAASGFTFSSYYMNWVRQAPGKGLEWVSSISEDGYSTYYPDSLKGRFTISRDSAKNSLYLQMNSLRADDTAVYYCARDFSGHTAWAGTGFEYWGQGTLVTVSS
VL: QSVLTQPPSVSGAPGQRITISCTGSSSNIGAGYDVHWYQQLPGTAPKLLIYGSSSRNSGVPDRFSGSKSGTSASLAITGLQAEDEADYYCQSYDSSLSVLYTFGTGTKVTVL
binding result: no binding
